Compound potency records, mixed from different reports. Data source: NIAID ChemDB in PubChem.

Shared fields: tests in culture; species: Candida albicans; read-out: MIC90

MIC50, MIC90 and the like: level of inhibition, or share of isolates inhibited.

| structure | strain or isolate | read by | value |
|---|---|---|---|
| CC(C)(C)[C@](O)(COc1ccc(Cl)cc1)Cn1cncn1 |  |  | 0.0007 µg/mL |
| COc1cc(/C=C/C=O)ccc1O | Clinical isolates |  | 100–250 µg/mL |
| C[C@H]1[C@H](O)[C@@H](C)/C=C/C=C/C=C/C=C/C=C/C=C/C=C/[C@H](O[C@@H]2O[C@H](C)[C@@H](O)[C@H](N)[C@@H]2O)C[C@@H]2O[C@](O)(C[C@@H](O)C[C@@H](O)CC[C@H](O)[C@@H](O)C[C@@H](O)CC(=O)O[C@H]1C)C[C@H](O)[C@H]2C(=O)O | ATCC 10231 |  | 0.25 µg/mL |
| Clc1ccc(CSC(Cn2ccnc2)c2ccc(Cl)cc2Cl)cc1 | 106 isolates |  | 1 µg/mL |
| Cc1nn([C@H](C)[C@](O)(Cn2cncn2)c2ccc(F)cc2F)c2ccc([N+](=O)[O-])cc12 | ATCC 32033 |  | ≤0.031 µg/mL |
| C=C(C)[C@@H]1CC[C@]2(C(=O)O)CC[C@]3(C)C(CCC4[C@@]5(C)CC[C@H](O)C(C)(C)C5CC[C@]43C)C12 | ATCC 90028 | broth dilution | 25.2 µg/mL |
| C[C@@H](c1nc(-c2ccc(C#N)cc2)cs1)[C@](O)(Cn1cncn1)c1ccc(F)cc1F | 4054 strains (fluconazole-susceptible) |  | 0.015 µg/mL |
| CCC(C)n1ncn(-c2ccc(N3CCN(c4ccc(OC[C@H]5CO[C@](Cn6cncn6)(c6ccc(Cl)cc6Cl)O5)cc4)CC3)cc2)c1=O | ATCC 10231 |  | >16 µg/mL |
| CCC(C)n1ncn(-c2ccc(N3CCN(c4ccc(OC[C@H]5CO[C@](Cn6cncn6)(c6ccc(Cl)cc6Cl)O5)cc4)CC3)cc2)c1=O | 206 isolates |  | 0.25 µg/mL |
| C[C@@H](c1ncncc1F)[C@](O)(Cn1cncn1)c1ccc(F)cc1F | 9 clinical isolates | broth dilution | 0.25 µg/mL |
| Nc1[nH]c(=O)ncc1F |  |  | 0.06–1 µg/mL |
| CCC(C)n1ncn(-c2ccc(N3CCN(c4ccc(OC[C@H]5CO[C@](Cn6cncn6)(c6ccc(Cl)cc6Cl)O5)cc4)CC3)cc2)c1=O | 85 strains (fluconazole-resistant) |  | >8 µg/mL |
| Nc1nc(=O)n([C@H]2CS[C@@H](CO)O2)cc1F | 206 isolates |  | 4 µg/mL |
| CN(C/C=C/C#CC(C)(C)C)Cc1cccc2ccccc12 | CI_5 |  | 16 µg/mL |
| COc1ccc(C=O)cc1 | 10261 | agar diffusion / agar | 350–500 µg/mL |
| Clc1ccc(COC(Cn2ccnc2)c2ccc(Cl)cc2Cl)cc1 | 106 isolates |  | 16 µg/mL |
| C[C@H]1[C@H](O)[C@@H](C)/C=C/C=C/C=C/C=C/C=C/C=C/C=C/[C@H](O[C@@H]2O[C@H](C)[C@@H](O)[C@H](N)[C@@H]2O)C[C@@H]2O[C@](O)(C[C@@H](O)C[C@@H](O)CC[C@H](O)[C@@H](O)C[C@@H](O)CC(=O)O[C@H]1C)C[C@H](O)[C@H]2C(=O)O |  |  | 0.5–1 µg/mL |
| C=CC(C)(O)CCCC=C(C)C |  |  | 0.025–0.031 µg/mL |
| CCC(C)n1ncn(-c2ccc(N3CCN(c4ccc(OC[C@H]5CO[C@](Cn6cncn6)(c6ccc(Cl)cc6Cl)O5)cc4)CC3)cc2)c1=O |  |  | 0.016–0.06 µg/mL |
| C=C(c1ccccc1OCc1cccc(Cl)c1)n1ccnc1 | 106 isolates |  | 2 µg/mL |

3 of the rows above, restated:

structure | strain or isolate | read by | value
Nc1nc(=O)n([C@H]2CS[C@@H](CO)O2)cc1F | 206 isolates |  | 4 µg/mL
C[C@H]1[C@H](O)[C@@H](C)/C=C/C=C/C=C/C=C/C=C/C=C/C=C/[C@H](O[C@@H]2O[C@H](C)[C@@H](O)[C@H](N)[C@@H]2O)C[C@@H]2O[C@](O)(C[C@@H](O)C[C@@H](O)CC[C@H](O)[C@@H](O)C[C@@H](O)CC(=O)O[C@H]1C)C[C@H](O)[C@H]2C(=O)O |  |  | 0.5–1 µg/mL
Nc1[nH]c(=O)ncc1F |  |  | 0.06–1 µg/mL

Lines come from different laboratories, so protocols vary. An empty or dashed field is not shown. Two numbers with a dash give a range or band.